Experimental findings from patent publication US9487476B2, “Catechol diethers as potent anti-HIV agents” (priority 2011, dated 2016) are described below.

Structures are written as SMILES.

Broadly, the CC50 is the concentration that lowers cell viability or growth by half. The low end stands for harm at low concentration, the high end for better tolerance by the cells.

The data set relates to MT-2 human T-cells. Kind of data set: Cytotoxicity, inhibition of MT-2 cell growth. The data set is classed as cell-based. Particulars: Table 5, MT-2 cells.

As for `Cc1cc(C#N)cc(C)c1Oc1nc(Nc2ccc(C#N)cc2)nc(N)c1Br` [etravirine], the CC50 worked out at 11 µM.
